# According to PMC8174753:
# Tested on: T1, Bcal3178 (LysR family regulator) (Burkholderia cenocepacia H111)
# T1 sequence (looked up): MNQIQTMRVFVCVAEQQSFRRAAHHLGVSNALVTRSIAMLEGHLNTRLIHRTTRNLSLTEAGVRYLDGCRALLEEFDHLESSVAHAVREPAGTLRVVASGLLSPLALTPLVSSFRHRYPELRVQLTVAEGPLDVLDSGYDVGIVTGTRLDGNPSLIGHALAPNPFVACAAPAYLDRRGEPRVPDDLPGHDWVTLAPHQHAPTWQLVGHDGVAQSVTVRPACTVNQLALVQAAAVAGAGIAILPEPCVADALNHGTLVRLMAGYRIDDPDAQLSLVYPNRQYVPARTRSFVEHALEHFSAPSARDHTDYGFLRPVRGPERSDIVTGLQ
# Test: EMSA
# Conditions: unlabeled probe reduces binding; Binding reactions per manufacturer's instructions (Thermo), 3'-biotin probes, 5% polyacrylamide gel; pH and temperature not stated; recombinant protein; residues 1-327; protein details: GST (pGEX-6p-1); label: 3'-biotin; probe letters rebuilt from the primers and the genome
sequence,measurement,value
CGAACATGAATAGGGCCTCACCGGCGCCGCACCCGTGAAGCATATCGATGGGGCCAGCCGCCGCCTATCGGACTGGACTGATTCTGCGCCAACGCGCGTGTCGGGAGACGACGCGGAATGAATGCGACCGGTTGACAGCCGTGGCCACCCTGTGATTTGATGCCGGTCATGCACGCCGCCCAGTTCCTCTTCTCGCTACGACTACTAGCCCGCTTCTCCGGGCTGGGTCTGCGGCTGCGCGCTTTCCATCTGCTTCTTTCCTGAAGCGCCAGATTTTCCCCGCATCACCGACCTGGCCCCGGTTGTCGACCGGCGCCTGAGTTCGTCTTTCTTCCGTCACCACTCCGCTCCGTCCCGGTCGCCCAACCGCCAAGGCCGTCGTTTGCCGTACCGCTTTGCCGTTGTGCCGCTTTTTTGCCGTTCTTACCGCTGCGCATGGACCCGGCTCATCACGCCGATGGCCGCCGCGCCGCGCTTCACCGACAAACAGACCGAGGACCGACATC (double strand) [bclACB promoter 506 bp],binding result,binds

# Protein sequences can lack the tags named with them.
